Taken from: PubChem BioAssay AID1224833 (University of Georgia, 2016)

Test: 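Host factors restraining rotavirus as candidate antiviral genes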 (primary screen)
Cells: monkey MA104 kidney cells
Reagent: siRNA pool against human genes, 50 nM
Timing: 48 h knock-down before infection; read 24 h after infection
Conditions: infection with rotavirus strain RV3 two days after transfection; infectious dose for this stage not given
Measurement: 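Rotavirus antigen per well by fluorescent immunoassay, normalised to non-targeting control wells on each plate and given as a standard z-score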
Direction: z-score vs non-targeting control: higher = more rotavirus replication than with non-targeting control
Active means: In these data the active calls have z-score vs non-targeting control at about -1 or lower, or at about 1 or higher
Meaning of the calls: active = z-score beyond 1 either way; inactive = z-score within 1 of zero
In all, the deposit lists about 12,000 reagents; shown is a random part of them. In the full data, about 5,600 (46%) got an active call. 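Active calls cover z-scores past 1 in both directions, so they include lowered as well as raised rotavirus replication.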 A number with no mark means an inactive call.

no.	gene knocked down	z-score vs non-targeting control
1	ZNF263 (zinc finger protein 263)	-0.808
2	NEU2 (neuraminidase 2)	2.91 (active)
3	ZKSCAN8 (zinc finger with KRAB and SCAN domains 8)	-0.191
4	KRT9 (keratin 9)	1.08 (active)
5	SMAD6 (SMAD family member 6)	0.676
6	CADM3 (cell adhesion molecule 3)	-0.374
7	CELF1 (CUGBP Elav-like family member 1)	-0.696
8	ELF3 (E74 like ETS transcription factor 3)	1.69 (active)
9	PRDM1 (PR/SET domain 1)	0.881
10	ZMYND8 (zinc finger MYND-type containing 8)	-0.571
11	NUP58 (nucleoporin 58)	1.33 (active)
12	PRH1 (proline rich protein HaeIII subfamily 1)	-1.9 (active)
13	TAS2R7 (taste 2 receptor member 7)	-0.242
14	ZNF526 (zinc finger protein 526)	-0.783
15	S100A14 (S100 calcium binding protein A14)	1.56 (active)
16	NOG (noggin)	-1.16 (active)
17	FEV (FEV transcription factor, ETS family member)	0.443
18	ZNF626 (zinc finger protein 626)	0.0941
19	BPIFB6 (BPI fold containing family B member 6)	-1.73 (active)
20	PGLYRP2 (peptidoglycan recognition protein 2)	-1.46 (active)
21	HOXD10 (homeobox D10)	-0.654
22	IGFBPL1 (insulin like growth factor binding protein like 1)	1.15 (active)
23	ZNF564 (zinc finger protein 564)	-0.0667
24	CIAO2A (cytosolic iron-sulfur assembly component 2A)	3.53 (active)
25	GPX7 (glutathione peroxidase 7)	-0.737
26	CTCFL (CCCTC-binding factor like)	-0.18
27	VPS13D (vacuolar protein sorting 13 homolog D)	-0.348
28	AFAP1L2 (actin filament associated protein 1 like 2)	-0.816
29	TMPRSS12 (transmembrane serine protease 12)	-0.545
30	SWSAP1 (SWIM-type zinc finger 7 associated protein 1)	-0.837
31	GRAMD4 (GRAM domain containing 4)	0.919
32	NIBAN3 (niban apoptosis regulator 3)	-0.223
33	PCDHB12 (protocadherin beta 12)	-2.09 (active)
34	RSRC2 (arginine and serine rich coiled-coil 2)	0.642
35	INO80 (INO80 complex ATPase subunit)	0.921
36	SOX18 (SRY-box transcription factor 18)	0.957
37	AARS2 (alanyl-tRNA synthetase 2, mitochondrial)	-0.394
38	ACTR6 (actin related protein 6)	-1.39 (active)
39	LBH (LBH regulator of Wnt signaling pathway)	1.19 (active)
40	CRYGS (crystallin gamma S)	-1.72 (active)
41	IL15 (interleukin 15)	-1.47 (active)
42	ARHGEF5 (Rho guanine nucleotide exchange factor 5)	-0.171
43	TMEM60 (transmembrane protein 60)	-0.199
44	CAPN2 (calpain 2)	-0.97
45	CABLES1 (Cdk5 and Abl enzyme substrate 1)	-0.316
46	ZWINT (ZW10 interacting kinetochore protein)	-0.952
47	MTUS2 (microtubule associated scaffold protein 2)	0.571
48	COG1 (component of oligomeric golgi complex 1)	-0.708
49	TNPO1 (transportin 1)	-0.607
50	IFNAR2 (interferon alpha and beta receptor subunit 2)	-1.49 (active)
51	FLI1 (Fli-1 proto-oncogene, ETS transcription factor)	2.93 (active)
52	MSRB2 (methionine sulfoxide reductase B2)	-2.28 (active)
53	ARR3 (arrestin 3)	-0.234
54	TAS2R38 (taste 2 receptor member 38)	-2.55 (active)
55	NR1I2 (nuclear receptor subfamily 1 group I member 2)	0.836
56	TMC3 (transmembrane channel like 3)	-0.733
57	OR8J3 (olfactory receptor family 8 subfamily J member 3)	-0.394
58	ATG12 (autophagy related 12)	-1.05 (active)
59	RIBC2 (RIB43A domain with coiled-coils 2)	-2.55 (active)
60	NEIL2 (nei like DNA glycosylase 2)	0.822
61	TMC5 (transmembrane channel like 5)	-0.411
62	MS4A6E (membrane spanning 4-domains A6E)	0.911
63	APOB (apolipoprotein B)	1.4 (active)
64	ZNF691 (zinc finger protein 691)	2.02 (active)
65	DDX10 (DEAD-box helicase 10)	-2.55 (active)
66	KATNB1 (katanin regulatory subunit B1)	-0.916
67	SCOC (short coiled-coil protein)	-0.0722
68	USP10 (ubiquitin specific peptidase 10)	1.61 (active)
69	TBKBP1 (TBK1 binding protein 1)	0.422
70	TTC27 (tetratricopeptide repeat domain 27)	-1.28 (active)
71	TSPYL4 (TSPY like 4)	-1.34 (active)
72	FASN (fatty acid synthase)	-0.57
73	SNRPB (small nuclear ribonucleoprotein polypeptides B and B1)	0.504
74	TBX21 (T-box transcription factor 21)	-1.04 (active)
75	GSTM3 (glutathione S-transferase mu 3)	-3.4 (active)

Entries listed so far whose gene name starts with Z or z (8):
gene knocked down	z-score vs non-targeting control
ZNF263 (zinc finger protein 263)	-0.808
ZKSCAN8 (zinc finger with KRAB and SCAN domains 8)	-0.191
ZMYND8 (zinc finger MYND-type containing 8)	-0.571
ZNF526 (zinc finger protein 526)	-0.783
ZNF626 (zinc finger protein 626)	0.0941
ZNF564 (zinc finger protein 564)	-0.0667
ZWINT (ZW10 interacting kinetochore protein)	-0.952
ZNF691 (zinc finger protein 691)	2.02 (active)
